Results of unrelated studies side by side (data: NIAID ChemDB).

All rows: tests in culture

Percent inhibition refers to the dose given; in toxicity tests it is the harm to the cells.

smiles | strain | tested at | mutations | cell line | endpoint | organism | read by | value
CC(C)Nc1nc2cc(Cl)c(Cl)cc2n1[C@@H]1O[C@H](CO)[C@@H](O)[C@H]1O | AD169 |  |  | MRC-5 | EC50 | Human cytomegalovirus | hybridisation | 2.3 µM
O=C(NN=CC1C(c2ccccc2)=Nc2ccccc21)N1c2ccccc2C=Cc2ccccc21 | MTCC-3567 | 1000 µg/mL |  |  | zone | Aspergillus oryzae | agar diffusion | 13 mm
O=C(Nc1cc(S(=O)(=O)[O-])cc2cc(S(=O)(=O)[O-])ccc12)c1ccccc1 |  | 10 µg/mL |  | Human amnion AV3 cells | inhibition | Herpes simplex virus | cytopathic effect | 5%
COc1nsc(-c2ccccc2)c1C#N | TYPE B1 |  |  | HEP-2 | EC50 | Coxsackie virus | plaque count | >25 µM
O=C(N[C@@H](C(=O)N1CCC[C@H]1c1ncc(-c2ccc(-c3ccc(-c4cnc([C@@H]5CCCN5C(=O)[C@H](NC(=O)C5CC5)c5ccccc5)s4)cc3)cc2)s1)c1ccccc1)C1CC1 | genotype 2a |  | Y93H | Huh7.5 | fold resistance | Hepatitis C virus | luciferase / reporter gene | 3041
Cc1ccc2c(c1)C(C1SCC(=O)N1NC(=O)N1c3ccccc3C=Cc3ccccc31)C(c1ccccc1)=N2 | MTCC-3567 | 500 µg/mL |  |  | zone | Aspergillus oryzae | agar diffusion | 5 mm
CCCc1cc(=O)oc2cc(O)c(C(=O)CC)c(O)c12 | Chicago-1 |  |  | CV-1 | EC50 | Measles virus | cytopathic effect | 1 µg/mL
COc1ccc(-n2c(-c3cc(Cc4ccccc4)ccn3)c3n(c2=O)CCN(C(=O)c2ccc(Br)c(Cl)c2)C3)cc1 |  |  |  | HepG2.117 | EC50 | Hepatitis B virus | PCR | 0.5–5 µM
Cc1cc(-c2ccc(N=Nc3c(S(=O)(=O)O)cc4cc(S(=O)(=O)O)cc(N)c4c3O)c(C)c2)ccc1N=Nc1c(S(=O)(=O)O)cc2cc(S(=O)(=O)O)cc(N)c2c1O |  | 50 µg/mL |  | Human amnion AV3 cells | inhibition | Herpes simplex virus | cytopathic effect | 100%
CC(=O)Nc1ccc(C(=O)O)cc1 |  | 1 µM |  |  | inhibition | Pneumocystis carinii |  | 0%
O=C(Nc1ccc2c(O)c(N=Nc3ccc(N=Nc4ccc(S(=O)(=O)O)cc4)cc3)c(S(=O)(=O)O)cc2c1)c1ccccc1 |  | 50 µg/mL |  | Human conjunctiva cells | inhibition | Herpes simplex virus | cytopathic effect | 90%
CC(C)(Oc1ccc(-n2c(C(=O)NCc3ccccc3)c3n(c2=O)CCN(C(=O)c2ccc(Br)c(Cl)c2)C3)cc1)C(F)(F)F |  |  |  | HepG2.117 | EC50 | Hepatitis B virus | PCR | 0.5–5 µM
CC(N)C12CC3CC(CC(C3)C1)C2 | Influenza A H3N2 isolate 86 |  |  | MDCK | EC50 | Influenza A virus | ELISA | 13.2 µg/mL
Cn1cc(C(=O)NCc2ccc(Cl)cc2)c(=O)c2cc(CN3CCOCC3)ccc21 | NA varicella isolate | 3.6 µM |  | HFF | inhibition | Varicella zoster virus | plaque count | 90%
O=C(Nc1c(S(=O)(=O)[O-])cc2cc(S(=O)(=O)[O-])cc(O)c2c1O)c1ccccc1 | TYPE 3 | 50 µg/mL |  | Human embryonic lung cells | inhibition | Adenovirus | cytopathic effect | 90%
Cc1cc(C)cc(C(=O)c2cc(Cl)ccc2OCC(=O)Nc2ccc(S(N)(=O)=O)cc2C)c1 | HXB2 |  | RT-G190A | HeLa + HELA CD4+ | fold resistance | HIV-1 | β-galactosidase | ~1
CSc1nsc(-c2cccc3ccccc23)c1C#N | Encephalomyocarditis virus |  |  | L929 | EC50 | Encephalomyocarditis virus | plaque count | >4 µM
CO[C@H]([C@H](C)[C@H](/C=C/c1ccccc1)OC)[C@@H](C)/C=C/C(C)=C/C(N)=O |  |  |  |  | MIC | Saccharomyces cerevisiae |  | 100 µg/mL
COc1ccc(-n2c(C(=O)NCc3ccccc3)c3n(c2=O)C[C@H](C)N(C(=O)c2ccc(Br)c(Cl)c2)C3)cc1 |  |  |  | HepG2.117 | EC50 | Hepatitis B virus | PCR | 0.1–0.5 µM
CC(C)Nc1nc2cc(Cl)c(Cl)cc2n1[C@H]1O[C@@H](CO)[C@H](O)[C@@H]1O | C9207 |  |  | MRC-5 | EC50 | Human cytomegalovirus | hybridisation | 0.03 µM
Nc1nc2c(ncn2COC(CO)CO)c(=O)[nH]1 | AD169 | 3 µM |  | HFF | inhibition | Cytomegalovirus | hybridisation | 53%
O=S(=O)(O)c1cc(O)c2c(O)c(N=Nc3ccccc3)c(S(=O)(=O)O)cc2c1 |  | 50 µg/mL |  | Human amnion AV3 cells | inhibition | Herpes simplex virus | cytopathic effect | 43%
CCCc1cc(=O)oc2cc(OC(=O)C(C)(C)C)c3c(c12)OC(C)(C)C=C3 | NS2 |  |  | CV-1 | EC50 | Measles virus | cytopathic effect | 0.2 µg/mL
CSc1nsc(-c2ccccc2Cl)c1C#N | Encephalomyocarditis virus |  |  | L929 | EC50 | Encephalomyocarditis virus | plaque count | >5 µM
O=C(NCc1ccc(Cl)cc1)c1c[nH]c2ccc(CCCO)cc2c1=O | KLE |  |  |  | EC50 | Varicella zoster virus | plaque count | 0.1 µM
CSc1nsc(-c2ccc(O)cc2)c1C#N | TYPE 2 |  |  | HEP-2 | EC50 | Adenovirus | plaque count | >2 µM
O=c1[nH]c(=O)n([C@H]2C[C@H](O)[C@@H](CO)O2)cc1/C=C\Cl | LA (TYPE 1) |  |  | PRK | EC50 | Bovine herpesvirus 1 | cytopathic effect | 7 µg/mL
CC1CCC(C(=O)N(c2cc(C#CC(C)(C)C)sc2C(=O)O)C2CCC(O)CC2)CC1 | H77 (GT1a) |  | I482L | Huh7 | fold resistance | Hepatitis C virus | luciferase | 34.2
O=S(=O)([O-])c1ccc(O)c2ccccc12 |  | 5 µg/mL |  | Human embryonic lung cells | inhibition | Rhinovirus | cytopathic effect | 0%
Nc1ccc(S(=O)(=O)c2ccc(N)cc2)cc1 | ATCC49601 |  |  |  | MIC | Mycobacterium avium complex |  | 64 µg/mL
COc1ccc(CNC(=O)c2c3n(c(=O)n2-c2ccc(OCC(F)(F)F)cc2)CCN(C(=O)c2ccc(Br)c(Cl)c2)C3)c(OC)c1 |  |  |  | HepG2.117 | EC50 | Hepatitis B virus | PCR | <0.1 µM
O=C(NN=CC1C(c2ccccc2)=Nc2ccc(Cl)cc21)N1c2ccccc2C=Cc2ccccc21 | MTCC-1782 | 500 µg/mL |  |  | zone | Aspergillus terreus | agar diffusion | 9 mm
Nc1nc2c(ncn2COC(CO)CO)c(=O)[nH]1 |  | 0.3 µM |  | HEL | inhibition | Cytomegalovirus |  | 53%
CCCc1cc(=O)oc2cc(OS(=O)(=O)c3ccc(C)cc3)cc(OS(=O)(=O)c3ccc(C)cc3)c12 | CC |  |  | CV-1 | EC50 | Measles virus | cytopathic effect | 2 µg/mL
CCCCCCCCOC(=O)[C@]1(O)C[C@@H](O)[C@@H](O)[C@H](OC(=O)/C=C/c2ccc(O)c(O)c2)C1 | UMIP 1142.76 |  |  |  | MIC80 | Aspergillus parasiticus | absorbance | 1000 µg/mL
CCCc1cc(=O)oc2cc(OS(=O)(=O)c3ccc(C)cc3)cc(O)c12 | Chicago |  |  | CV-1 | EC50 | Measles virus | cytopathic effect | 1 µg/mL
O=C(NCc1ccccc1)c1c2n(c(=O)n1-c1ccc(F)cc1)CCN(C(=O)c1ccc(Br)c(Cl)c1)C2 |  |  |  | HepG2.117 | EC50 | Hepatitis B virus | PCR | 0.5–5 µM
Cc1cc(C#N)cc(C(=O)c2cc(Cl)ccc2OCC(=O)Nc2ccc(OCCCN3CC=CC3)cc2C)c1 | HXB2 |  | RT-V106I | HeLa + HELA CD4+ | fold resistance | HIV-1 | β-galactosidase | ~1
Nc1ccc2cc([N+](=O)[O-])cc(S(=O)(=O)[O-])c2c1 | TYPE 3 | 5 µg/mL |  | Human amnion AV3 cells | inhibition | Adenovirus | cytopathic effect | 0%
Nc1nc2c(ncn2COC(CO)CO)c(=O)[nH]1 | R56 |  |  |  | EC50 | Human cytomegalovirus | plaque count | 7 µM
O=S(=O)([O-])c1ccc2c(S(=O)(=O)[O-])cc(S(=O)(=O)[O-])cc2c1 | TYPE 3 | 5 µg/mL |  | Human embryonic lung cells | inhibition | Adenovirus | cytopathic effect | 0%
CCc1cc(C#N)cc(C(=O)c2cc(Cl)ccc2OCC(=O)Nc2ccc(S(N)(=O)=O)cc2C)c1 | HXB2 |  | RT-G190A | HeLa + HELA CD4+ | fold resistance | HIV-1 | β-galactosidase | ~1
Nc1nc(=O)n([C@H]2C[C@H](O)[C@@H](CO)O2)cc1/C=C\Cl | LA (TYPE 1) |  |  | PRK | EC50 | Bovine herpesvirus 1 | cytopathic effect | >200 µg/mL
O=C(Nc1ccc2cc(S(=O)(=O)[O-])cc(S(=O)(=O)[O-])c2c1)c1ccccc1 |  | 50 µg/mL |  | Human amnion AV3 cells | inhibition | Rhinovirus | cytopathic effect | 8%
Cc1cc2cn[nH]c2cc1NC(=O)COc1ccc(Cl)cc1C(=O)c1cccc(C#N)c1 | HXB2 |  | RT-V106A | HeLa + HELA CD4+ | fold resistance | HIV-1 | β-galactosidase | ~100
CCCc1cc(=O)oc2c3c(c4c(c12)OC(C)(C)[C@H](O)[C@@H]4O)O[C@H](C)[C@@H](C)[C@@H]3O | NS2 |  |  | CV-1 | EC50 | Measles virus | cytopathic effect | 0.5 µg/mL
C=CCc1ccc(OC)c(OC)c1 | 2029 |  |  |  | MIC90 | Candida tropicalis | turbidity | 345 µg/mL
Cc1cc2[nH]cnc2cc1NC(=O)COc1ccc(Cl)cc1C(=O)c1cc(F)cc(C(F)(F)F)c1 | HXB2 |  | RT-K103N | HeLa + HELA CD4+ | fold resistance | HIV-1 | β-galactosidase | ~1
CSc1nsc(-c2cccc(Cl)c2)c1C#N | Encephalomyocarditis virus |  |  | L929 | EC50 | Encephalomyocarditis virus | plaque count | >10 µM
CCC(C)n1ncn(-c2ccc(N3CCN(c4ccc(OC[C@H]5CO[C@](Cn6cncn6)(c6ccc(Cl)cc6Cl)O5)cc4)CC3)cc2)c1=O | AF293 | 8 µg/mL | sakA |  | inhibition | Aspergillus fumigatus | broth dilution | 99.92%
Cc1cc(S(N)(=O)=O)ccc1NC(=O)COc1ccc(Cl)cc1C(=O)c1cccc(C#N)n1 | Nevirapine-resistant (RT Y181C) |  | RT-Y181C | MT-4 | fold resistance | HIV-1 | cytopathic effect / propidium iodide | ~1

Repeating the final 6 entries:

{"smiles": "CCCc1cc(=O)oc2c3c(c4c(c12)OC(C)(C)[C@H](O)[C@@H]4O)O[C@H](C)[C@@H](C)[C@@H]3O", "strain": "NS2", "cell line": "CV-1", "endpoint": "EC50", "organism": "Measles virus", "read by": "cytopathic effect", "value": "0.5 µg/mL"}
{"smiles": "C=CCc1ccc(OC)c(OC)c1", "strain": "2029", "endpoint": "MIC90", "organism": "Candida tropicalis", "read by": "turbidity", "value": "345 µg/mL"}
{"smiles": "Cc1cc2[nH]cnc2cc1NC(=O)COc1ccc(Cl)cc1C(=O)c1cc(F)cc(C(F)(F)F)c1", "strain": "HXB2", "mutations": "RT-K103N", "cell line": "HeLa + HELA CD4+", "endpoint": "fold resistance", "organism": "HIV-1", "read by": "β-galactosidase", "value": "~1"}
{"smiles": "CSc1nsc(-c2cccc(Cl)c2)c1C#N", "strain": "Encephalomyocarditis virus", "cell line": "L929", "endpoint": "EC50", "organism": "Encephalomyocarditis virus", "read by": "plaque count", "value": ">10 µM"}
{"smiles": "CCC(C)n1ncn(-c2ccc(N3CCN(c4ccc(OC[C@H]5CO[C@](Cn6cncn6)(c6ccc(Cl)cc6Cl)O5)cc4)CC3)cc2)c1=O", "strain": "AF293", "tested at": "8 µg/mL", "mutations": "sakA", "endpoint": "inhibition", "organism": "Aspergillus fumigatus", "read by": "broth dilution", "value": "99.92%"}
{"smiles": "Cc1cc(S(N)(=O)=O)ccc1NC(=O)COc1ccc(Cl)cc1C(=O)c1cccc(C#N)n1", "strain": "Nevirapine-resistant (RT Y181C)", "mutations": "RT-Y181C", "cell line": "MT-4", "endpoint": "fold resistance", "organism": "HIV-1", "read by": "cytopathic effect / propidium iodide", "value": "~1"}

Blank or dashed fields: not listed here. ECn: concentration that inhibits the pathogen or its effect by n%. Zone: diameter of growth inhibition. Fold resistance has wild type as its base. MIC50, MIC90 and the like: level of inhibition, or share of isolates inhibited. a–b is a range or a potency band. Conditions beyond the fields shown may differ between rows.